Compound potency records, mixed from different reports. Data source: NIAID ChemDB in PubChem.

Shared fields: tests in culture; species: HIV-1; read by: trypan blue; read-out: EC50

Blank or dashed fields: not listed here.

smiles | strain or isolate | cell line | setting | result
CC(C)(C)NC(=O)[C@@H]1CCCN1C(=O)[C@@H](O)[C@H](Cc1ccccc1)NC(=O)[C@H](CC(N)=O)NC(=O)c1ccc2ccccc2n1 | LAI | ATH8 | - | 1 µM
Cc1cn([C@H]2C=C[C@@H](CO)O2)c(=O)[nH]c1=O | LAV | MT-4 | - | 0.01 µM
Nc1c(S(=O)(=O)[O-])cc2c3c(cc(S(=O)(=O)[O-])cc13)C(=O)N(NC(=O)N/N=C\c1cccc(C=O)c1)C2=O.[Na+].[Na+] | LAV | PBMC | - | 22.8 µM
Cc1cn([C@H]2CC[C@@H](CO)O2)c(=O)[nH]c1=O | LAV | MT-4 | - | 0.2 µM
CC(C)=CCN1Cc2cccc3[nH]c(=S)n(c23)C[C@@H]1C | IIIB | MT-4 | - | 0.021 µM
Nc1ncnc2c1ncn2CCOCP(=O)(O)O | - | MT-4 | - | 7 µM
Nc1ccn([C@H]2C=C[C@@H](CO)O2)c(=O)n1 | LAV | MT-4 | - | 0.13 µM
CSC[C@H](NC(=O)COc1cccc2cnccc12)C(=O)N[C@@H](Cc1ccccc1)[C@H](O)C(=O)N1CSC(C)(C)[C@H]1C(=O)NC(C)(C)C | RF | ATH8 | - | 0.02 µM
NNC(=O)NN1C(=O)c2cc(S(=O)(=O)[O-])cc3c(N)c(S(=O)(=O)[O-])cc(c23)C1=O | LAV | PBMC | - | >100 µM
Cc1cn([C@H]2C[C@H](N=[N+]=[N-])[C@@H](CO)O2)c(=O)[nH]c1=O | LAV | MT-4 | - | 0.006 µM
CC(C)(C)[Si](C)(C)OC[C@H]1O[C@@H](n2cnc3c(=O)[nH]cnc32)[C@H](O[Si](C)(C)C(C)(C)C)C12OS(=O)(=O)C=C2N | IIIB | MT-4 | - | 0.14 µg/mL
O=c1[nH]cnc2c1ncn2[C@H]1CC[C@@H](CO)O1 | IIIB | MT-4 | - | 1.2 µg/mL
O=C(O)CSc1ccc2c(c1)c(=O)c1ccccc1n2C1CC1 | IIIB | MT-4 | - | <12.5 µg/mL
CC(C)(C)NC(=O)[C@@H]1CSCN1C(=O)[C@@H](O)[C@H](Cc1ccccc1)NC(=O)[C@H](CC(N)=O)NC(=O)COc1cccc2ccccc12 | LAI | ATH8 | - | 0.5 µM
Cc1cn([C@H]2C[C@@H]3[C@@H](COCN3O)O2)c(=O)[nH]c1=O | IIIB | MT-4 | - | 3.8 µg/mL
O=c1ccn([C@H]2CC[C@@H](CO)O2)c(=O)[nH]1 | LAV | MT-4 | - | 48 µM
CC(C)(C)[Si](C)(C)OC[C@H]1O[C@@H](n2cnc3nc[nH]c(=O)c32)[C@H](O[Si](C)(C)C(C)(C)C)C12OS(=O)(=O)C=C2N | IIIB | MT-4 | - | 0.09 µg/mL
CCOCn1c(Sc2cc(C)cc(C)c2)c(C(C)C)c(=O)[nH]c1=S | IIIB | MT-4 | - | 0.004 µM
Cn1cnc2ncn([C@@H]3O[C@H](CO[Si](C)(C)C(C)(C)C)C4(OS(=O)(=O)C=C4N)[C@H]3O[Si](C)(C)C(C)(C)C)c2c1=O | IIIB | MT-4 | - | 0.15 µg/mL
COC(=O)[C@H](C)NP(=O)(OC[C@@H]1C=C[C@H](n2cc(C)c(=O)[nH]c2=O)O1)Oc1ccccc1 | IIIB | MT-4 | 5 d | 0.07 µM
CC(C)(C)NC(=O)[C@H]1N(C(=O)[C@@H](O)[C@H](Cc2ccccc2)NC(=O)[C@H](CC(N)=O)NC(=O)COc2cccc3ccccc23)CSC1(C)C | LAI | ATH8 | - | 0.4 µM
CN(C)c1ncnc2c1ncn2[C@@H]1O[C@H](CO[Si](C)(C)C(C)(C)C)C2(OS(=O)(=O)C=C2N)[C@H]1O[Si](C)(C)C(C)(C)C | IIIB | MT-4 | - | 0.27 µg/mL

Repeating the final 3 entries:

smiles	strain or isolate	cell line	setting	result
COC(=O)[C@H](C)NP(=O)(OC[C@@H]1C=C[C@H](n2cc(C)c(=O)[nH]c2=O)O1)Oc1ccccc1	IIIB	MT-4	5 d	0.07 µM
CC(C)(C)NC(=O)[C@H]1N(C(=O)[C@@H](O)[C@H](Cc2ccccc2)NC(=O)[C@H](CC(N)=O)NC(=O)COc2cccc3ccccc23)CSC1(C)C	LAI	ATH8	-	0.4 µM
CN(C)c1ncnc2c1ncn2[C@@H]1O[C@H](CO[Si](C)(C)C(C)(C)C)C2(OS(=O)(=O)C=C2N)[C@H]1O[Si](C)(C)C(C)(C)C	IIIB	MT-4	-	0.27 µg/mL

Rows are shuffled and stem from different studies. ECn: concentration that inhibits the pathogen or its effect by n%.